Record: PubChem BioAssay AID624099 (ICCB-Longwood, 2012)

Aim: 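Host factors E2 relies on to silence an HPV18 LCR reporter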 (primary screen)
Cells: human C33A cervical carcinoma cells (HPV-negative) stably expressing BPV1 E2 and an HPV18 LCR luciferase reporter
Knock-down reagent: siRNA pool against human genes, 40 nM
Timing: 72 h
Measurement: 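Per-well luciferase luminescence, z-scored on each plate against the plate mean and SD with control wells left out, then averaged across three replicate plates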
Direction: mean z-score and z-score: higher = stronger reporter signal, weaker E2 silencing
Active means: 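Mean z ≥ 2 together with z ≥ 2 in two or more of the three replicates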
This is one part, drawn at random, of about 21,000 reagents. 497 of all reagents (2.4%) count as active. 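Higher z means weaker E2 silencing; only reporter increases were scored, and knock-downs that hurt cell survival may mask genuine repressor factors.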 Unmarked entries are inactive.

no.	Gene	mean z-score	z-score, replicate A	z-score, replicate B	z-score, replicate C
1	CEP250	0.43	-0.02	0.57	0.72
2	FREM1	-1.79	-1.29	-2.13	-1.94
3	GRID2	0.44	0.36	0.5	0.46
4	NCBP2L	-0.11	0.5	-0.27	-0.56
5	HOXD12	0.11	0.51	0.02	-0.21
6	OR6C75	-0.2	-0.47	-0.18	0.06
7	CCDC184	-0.96	-1.09	-0.77	-1.02
8	KIF5C	1.27	1.11	1.31	1.38
9	MCF2L2	0.18	0.07	-0.03	0.49

2 of these entries in another layout:
| Gene | mean z-score | z-score, replicate A | z-score, replicate B | z-score, replicate C |
| --- | --- | --- | --- | --- |
| KIF5C | 1.27 | 1.11 | 1.31 | 1.38 |
| MCF2L2 | 0.18 | 0.07 | -0.03 | 0.49 |

More records follow.
no.	Gene	mean z-score	z-score, replicate A	z-score, replicate B	z-score, replicate C
10	CXXC1	0.88	1.15	0.67	0.84
11	DEFB125	-0.53	-0.79	-0.24	-0.55
12	LINC02868	-1.07	-0.81	-1.03	-1.37
13	AP1G2	1.54	1.52	1.48	1.62
14	KRTAP2-4	-0.39	-0.44	-0.52	-0.22
15	GPA33	0.29	0.42	0.27	0.18
16	LOC389910 (retired record)	0.33	0.2	0.33	0.44
17	TCP10L2	-0.29	-0.27	-0.41	-0.21
18	SNTB2	-0.48	-0.65	-0.32	-0.47
19	LOC389069 (retired record)	1.68	2.01	1.66	1.37
20	ZNF491	0.7	0.5	0.66	0.93
21	B3GNT6	-0.13	-0.17	-0.31	0.11
22	TNFAIP2	2.74 (active)	1.63	3.23	3.35
23	ATXN10	1.07	0.99	1.14	1.08
